The substances below were run against ATP (assay: ITC). Settings: parent: 15.37 ± 4.85.
LnaB (recombinant, purified) S261A showed a Kd of 14.4 µM. For LnaB (recombinant, purified) H305A, the Kd was 16.3 µM. For LnaB (recombinant, purified) Y196A, the Kd was 13.8 µM. LnaB (recombinant, purified) D183A was tested, and the Kd was 16.1 µM. LnaB (recombinant, purified) E309A was tested, and the Kd was 13.2 µM.

Reference: PMC11251166 (Nature Communications, 2024)
